# In ChEMBL document CHEMBL1154744, “HIV-1 protease inhibitors with a transition-state mimic comprising a tertiary alcohol: improved antiviral activity in cells” (J Med Chem, 2010):
# Amino acid sequences for entries named in this document (tags omitted).
# UniProt Q72874, entry or part of it I84V/L63P/V82T: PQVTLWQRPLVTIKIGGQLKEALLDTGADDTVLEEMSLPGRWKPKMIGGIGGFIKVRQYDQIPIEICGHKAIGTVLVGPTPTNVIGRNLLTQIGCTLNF
# Target: Human immunodeficiency virus type 1 protease (Human immunodeficiency virus 1, UniProt Q72874, I84V/L63P/V82T)
# Test: Inhibition of HIV1 protease L63P, V82T, I84V mutant
compound,measurement,value
COC(=O)N[C@H](C(=O)NN(CC[C@@](O)(Cc1ccccc1)C(=O)N[C@H]1c2ccccc2C[C@H]1O)Cc1ccc(-c2ccccn2)cc1)C(C)(C)C,Ki,0.016 µM
